Measurements published in patent US20260124194A1 (priority 2022, published 2026).

Tested on: subjects with idiopathic Chronic Intestinal Pseudo-Obstruction (CIPO)
Conditions: in vivo

**Q.** For CC(C)n1c(=O)c(C(=O)N[C@H]2C[C@H]3CC[C@@H](C2)N3C[C@@H](O)CN(C)S(C)(=O)=O)cc2ccccc21 [velusetrag, 1-isopropyl-2-oxo-1,2-dihydroquinoline-3-carboxylic acid {(1S,3R,5R)-8-[(R)-2-hydroxy-3-(methanesulfonyl-methyl-amino)propyl]-8-azabicyclo[3.2.1]oct-3-yl}amide], which “Orocecal transit time, mean change between Visit 3 and Visit 1” value is on record?
**A.** -63.0 ± 83.79 min
